Compound potency records, mixed from different reports. Data source: NIAID ChemDB in PubChem.

Shared fields: whole-cell or culture tests; species: Hepatitis C virus

Lines come from different laboratories, so protocols vary. An empty or dashed field is not shown. a–b is a range or a potency band. Fold resistance has wild type as its base. ECn: concentration that inhibits the pathogen or its effect by n%. Inhibition is in % at the dose shown (toxicity tests: loss of growth or viability).

smiles	cell line	measure	changes	strain or isolate	dose	method	result
COC(=O)N[C@H](C(=O)N1CCCC1c1ncc(-c2ccc(-c3ccc(-c4cnc([C@@H]5CC(C)CN5C(=O)[C@@H](NC(=O)CO)C(C)C)[nH]4)cc3)cc2)[nH]1)C(C)C	ET	EC50	ZL31W	1b		luciferase	0.000045 µM
CC(C)Cc1cc(CN2CCC(C(=O)Nc3ccc(Oc4ccccc4F)cc3)CC2)[nH]n1	Huh7	inhibition		JFH-1	15 µM	PCR	≥40%
NC(=S)Nc1cccc(OCCCCCOc2cccc(C(O)c3ccccc3)c2)c1	Ava5-EG(delta4AB)SEAP	EC50				reporter gene / fluorescence	0.001–1 µM
O=C(Nc1cccc(-c2ccco2)c1)C1CCN(Cc2cccc3cccnc23)CC1	Huh7	inhibition		JFH-1	15 µM	PCR	≥40%
NC(=S)Nc1cccc(OCCCCCOc2c(Cl)cccc2Cl)c1	Ava5-EG(delta4AB)SEAP	EC50				reporter gene / fluorescence	0.001–1 µM
O=C(N[C@@H](C(=O)N1CCC[C@H]1c1ncc(-c2ccc(-c3ccc(-c4cnc([C@@H]5CCCN5C(=O)[C@H](NC(=O)C5CC5)c5ccccc5)s4)cc3)cc2)s1)c1ccccc1)C1CC1	Huh7.5	fold resistance	P58L	genotype 2a		luciferase / reporter gene	212
CCn1ncc(CN2CCC(C(=O)Nc3cccc(-c4cccc(F)c4)c3)CC2)c1C	Huh7	inhibition		JFH-1	5 µM	PCR	≥40%
CC1(C)CC(=O)C2=C(C1)Nc1c(O)cccc1NC2c1c(Cl)cccc1Cl		EC50		1b		luciferase / reporter gene / replicon	11.87 µM
CC1CCC(C(=O)N(c2cc(C#CC(C)(C)C)sc2C(=O)O)C2CCC(O)CC2)CC1	Huh7	fold resistance	M423T	Con1 (gt 1b)		luciferase	49.6
COc1cccc(CN2CCC(C(=O)Nc3cccc(-c4cccc(Cl)c4)c3)CC2)c1O	Huh7	inhibition		JFH-1	5 µM	PCR	≥40%
CCN(CC)c1ccc(OCCCCCOc2cccc(NC(N)=S)c2)cc1	Ava5-EG(delta4AB)SEAP	EC50				reporter gene / fluorescence	0.001–1 µM
CC1(C)CC(=O)C2=C(C1)Nc1c(O)cccc1N(C(=O)CCC(=O)N1CCC(N3CCOCC3)CC1)[C@@H]2c1ccc(OCc2ccccc2)cc1Cl		EC50		1b		luciferase / reporter gene / replicon	25.88 µM
NC(=S)Nc1cccc(OCCCCCCCc2ccccc2)c1	Ava5-EG(delta4AB)SEAP	EC50				reporter gene / fluorescence	0.001–1 µM
Cc1cccc(C(=O)N2c3cccc(O)c3NC3=C(C(=O)CC(C)(C)C3)C2c2ccc(OCc3ccccc3F)cc2F)n1		EC50		1b		luciferase / reporter gene / replicon	0.47 µM
O=C(Nc1ccc(-c2nc3ccccc3[nH]2)cc1)C1CCN(Cc2cccc(F)c2)CC1	Huh7	inhibition		JFH-1	15 µM	PCR	≥40%
CC(=O)N1c2cccc(O)c2NC2=C(C(=O)CC(C)(C)C2)[C@H]1c1ccc(OCc2ccccc2)cc1Cl		EC50		1b		luciferase / reporter gene / replicon	1.25 µM
NC(=S)Nc1ccc2c(c1)Cc1cc(NCc3ccccc3)ccc1-2	Ava5-EG(delta4AB)SEAP	EC50				reporter gene / fluorescence	0.001–1 µM
CC1(C)CC(=O)C2=C(C1)Nc1c(O)cccc1NC2c1ccc(C#N)cc1F		EC50		1b		luciferase / reporter gene / replicon	33.35 µM
NC(=S)Nc1cccc(OCCCCCOc2ccc(Cl)c3ccccc23)c1	Ava5-EG(delta4AB)SEAP	EC50				reporter gene / fluorescence	0.001–1 µM